The record followed here is patent publication US20090221500A1 (ANGELICA THERAPEUTICS, published 2009).

In this assay the target is elongation factor-2 (EF-2) (rabbit (reticulocyte lysate)). The assay can be described thus: cell-based or functional assay.

B1: wild type DT382 (enzyme)
chain: not shown
Turning to B1, the “IC50 (ng/12.5 µl), inhibition of protein synthesis in IVTT” value was 20.3 ng/12.5 µl.
